Assay results: the CheMixHub ionic liquid set

Assay: xn = mol fraction of the nth substance listed

CC[n+]1ccn(C)c1.O=S(=O)(F)[N-]S(=O)(=O)F + O=S(=O)(F)[N-]S(=O)(=O)F.[K+]
101 kPa
Conditions	electrical conductivity [S/m]	viscosity [mPa·s]
273 K, x2 = 0	0.73	45.9
288 K, x2 = 0.2	0.706	57.4
298 K, x2 = 0.1	1.33	26.6
303 K, x2 = 0	1.86	16.7
308 K, x2 = 0	2.1	14.6
318 K, x2 = 0.2	1.81	20.6
323 K, x2 = 0.2	2.04	18.1
328 K, x2 = 0	3.18	9.11
333 K, x2 = 0	3.48	8.22
333 K, x2 = 0.1	3.04	10.4
348 K, x2 = 0.1	3.94	7.61
358 K, x2 = 0.1	4.61	6.39
368 K, x2 = 0.2	4.74	6.75

CC[n+]1ccn(C)c1.O=S(=O)(F)[N-]S(=O)(=O)F + O=S(=O)(F)[N-]S(=O)(=O)F.[Li+]
100 kPa, x2 = 0
Conditions	electrical conductivity [S/m]	viscosity [mPa·s]
278 K	0.86	38.3
308 K	2.07	14.4
338 K	3.75	7.2

CCCC[n+]1ccccc1.F[B-](F)(F)F + CCCC[n+]1ccccc1.O=S(=O)(F)[N-]S(=O)(=O)F
101.3 kPa, x2 = 0
Conditions	viscosity [mPa·s]
308.15 K	93
338.15 K	26.5

CCCC[n+]1ccccc1.O=S(=O)(F)[N-]S(=O)(=O)F + CCCC[n+]1ccccc1.F[B-](F)(F)F
101.3 kPa
Conditions	viscosity [mPa·s]
283.15 K, x1 = 0.2	275
283.15 K, x1 = 0.4	180
293.15 K, x1 = 0.2	146
298.15 K, x1 = 0.6	61
298.15 K, x1 = 0.8	47.8
298.15 K, x1 = 1	40
303.15 K, x1 = 0.6	50
303.15 K, x1 = 1	33.3
308.15 K, x1 = 0.2	68
313.15 K, x1 = 0.2	54
318.15 K, x1 = 0.2	44.1
318.15 K, x1 = 0.4	35
338.15 K, x1 = 0.2	22
338.15 K, x1 = 0.6	16
343.15 K, x1 = 0.2	19
343.15 K, x1 = 0.8	12.3
348.15 K, x1 = 0.2	16.6

CC[n+]1ccn(C)c1.O=S(=O)(F)[N-]S(=O)(=O)F + O
100 kPa
Conditions	electrical conductivity [S/m]	viscosity [mPa·s]
288.15 K, x1 = 0.8207	1.68	–
288.15 K, x1 = 0.8466	–	19.35
288.15 K, x1 = 0.8994	1.47	–
293.15 K, x1 = 0.7211	2.21	–
293.15 K, x1 = 0.9748	1.51	–
298.15 K, x1 = 0.8207	2.19	–
298.15 K, x1 = 0.8466	–	14.56
298.15 K, x1 = 0.8663	2.02	–
298.15 K, x1 = 0.9111	–	16.42
303.15 K, x1 = 0.771	2.62	–
303.15 K, x1 = 0.8466	–	12.8
303.15 K, x1 = 0.8994	2.19	–
303.15 K, x1 = 0.9111	–	14.38
308.15 K, x1 = 0.7211	3.13	–
308.15 K, x1 = 0.771	2.92	–
308.15 K, x1 = 0.7797	–	10.04
308.15 K, x1 = 0.8663	2.56	–
313.15 K, x1 = 0.7797	–	8.99
313.15 K, x1 = 0.8207	3.05	–
313.15 K, x1 = 0.8466	–	10.13
318.15 K, x1 = 0.8207	3.36	–
318.15 K, x1 = 0.9693	–	11.09
323.15 K, x1 = 0.8796	–	8.65
323.15 K, x1 = 0.8994	3.33	–
323.15 K, x1 = 0.9111	–	9.11
328.15 K, x1 = 0.9349	3.52	–
333.15 K, x1 = 0.7211	4.87	–
333.15 K, x1 = 0.8663	4.13	–
333.15 K, x1 = 0.8796	–	7.15
333.15 K, x1 = 0.9111	–	7.52
333.15 K, x1 = 0.9748	3.69	–
